From patent US7964221B2, “Composition and methods of use of an immunomodulator” (priority 2006, dated 2011)

Assays:
[1] = 32-week three-arm HIV trial: adverse events and laboratory abnormalities; type: in vivo, human
Source text: All participants were antiretroviral drug naive.
Laboratory abnormalities were graded.

[2] = 32-week three-arm HIV trial: liver function test (ALT, AST)
[3] = possibly related to treatment, moderate or severe intensity

zidovudine (AZT), lamividine (3TC), and efavirenz (EFV) [AZT/3TC/EFV]
↑Alanine aminotransferase ([1]; laboratory abnormalities): 6(30%) N(%) | ↑Aspartate aminotransferase ([1]; laboratory abnormalities): 5(25%) N(%) | ↑Cholesterol ([1]; laboratory abnormalities): 2(10%) N(%) | ↓ Neutrophils ([1]; laboratory abnormalities): 2(10%) N(%) | ↓Haemoglobin ([1]; laboratory abnormalities): 2(10%) N(%) | Patients who needed replacement therapy due to progressive fatigue, vomiting and gastrointestinal disorders, and/or hepatotoxicity ([1]; over 32 weeks): 30% | Patients who refused further therapy ([1]; over 32 weeks): 5% | Patients with serious adverse events possibly or probably related to study medication ([1]; over 32 weeks): 35% | Proportion of patients with at least one adverse event possibly and probably related to study medications ([1]; over 32 weeks): 65% | Abdominal pain [1, 3]: 7(35%) N(%) | Diarrhea [1, 3]: 6(30%) N(%) | Fatigue [1, 3]: 11(55%) N(%) | Headache [1, 3]: 3(15%) N(%) | Nausea [1, 3]: 7(35%) N(%) | Vomiting [1, 3]: 2(10%) N(%) | Median cumulative change from baseline ALT values ([2]; 12 weeks): +22 U/L | Mean baseline values of AST ([2]; baseline): 42 U/L | Mean baseline values for ALT ([2]; baseline (Before)): 36 U/L | Number of patients with ART related hepatotoxicity ([2]; over 32 weeks): 6 (30%) N(%) | Median cumulative change from baseline ALT values ([2]; week 20): +30 U/L | ALT values (AST marker paragraph), mean ([2]; week 32): 68 U/L | Median cumulative change from baseline ALT values ([2]; week 32): +42 U/L | Mean ALT values at study conclusion ([2]; week 32 (After)): 78 U/L
